{"source": "patent US20020194634A1", "about": "“Insect control system” (priority 1999, published 2002)", "origin": "cited, not measured here", "conditions": "boll weevil; cited from earlier work", "data": [{"smiles": "COP(=O)(NC(C)=O)SC", "note": "(stereo not shown) [Acephate, O, S-dimethyl acetylphosphoramidothicate]", "values": [{"measurement": "metabolism of acephate to methamidophos", "result": "No metabolism"}]}]}
